# Reference: patent publication US20090068637A1 (published 2009)
# B1: 10F7 single chain antibody (scFv)
# scFv: QVQLQQPGAELVKPGASVKLSCKASGYTFTSYWMHWVKQRPGQGLEWIGEIDPSDSYTNYNQKFKGKATLTVDKSSSTAYMQLSSLTSEDSAVYYCARGGTGDFHYAMDYWGQGTSVTVSSGGGGSDILMTQSPSSMSVSLGDTVSITCHASQGISSNIGWLQQKPGKSFKGLIYHGTNLEDGVPSRFSGSGSGADYSLTISSLESEDFADYYCVQYVQFPYTFGGGTKLEIKR
# Biological target: hemagglutinin of virus strain Ck/HK/Yu22/02 (H5N1) (avian influenza virus H5N1, UniProt Q6DQ18 1-559)
# Experiment: cell-based or functional assay
binder,measurement,value
B1,neutralization test: dilution of 10F7 scFv,64 fold dilution
